System: P. falciparum female gametocytes
Assay: P. falciparum female gametogenesis assay (Pf FGAA)
[1] = unified cytotox / IC50, <10-fold red, >10-fold green
[2] = unified cytotox / Pf FGAA IC50, <10-fold selectivity red, >10-fold green
[3] = unified cytotox / Pf FGAA IC50, red: <10-fold selectivity, green: >10-fold

SMILES | Assay tox ratio Pf FGAA [2] | Assay tox ratio Pf FGAA [3] | further results
Cc1cccc(Nc2nc(N[C@@H]3CCCNC3)nc3cc[nH]c(=O)c23)c1.O=C(O)C(F)(F)F [TCMDC-134835] | – | – | Assay tox ratio Pf FGAA [1]: 2.12
CN(C)CCNCc1ccc(-c2ccc3c(Nc4ccc(Cl)cc4F)ccnc3c2)o1 [TCMDC-138391] | 0.52 | – | –
COc1cccc(C23N=C(Nc4nc5ccccc5[nH]4)NC2(c2cccc(OC)c2)NC(Nc2nc4ccccc4[nH]2)=N3)c1 (centres unmarked) [TCMDC-139087] | – | 437.61 | –
Clc1ccc(Nc2nc(NCc3ccccc3)nc(N/N=C/c3ccccn3)n2)cc1 [TCMDC-138557] | – | 53.35 | –
Cc1cc(Nc2ncc(C#N)c(Nc3ccccc3C(N)=O)n2)ccc1N1CCN(C)CC1.Cl [TCMDC-134115] | – | – | Assay tox ratio Pf FGAA [1]: 1.31
CCN(CC)CCN(Cc1ccc(-c2ccc(Cl)cc2)cc1)C(=O)Cn1cc(CN(C)C)c(=O)nc1SCc1ccc(F)cc1 [TCMDC-140406] | – | 4.77 | –
CN1CCN(Cc2ccc(OCc3cccc(COc4ccc(CN5CCN(C)CC5)cc4I)c3)c(I)c2)CC1.Cl [TCMDC-137239] | 2.71 | – | –
CCCC(=O)NC(c1ccc(C(C)C)cc1)c1ccc2cccnc2c1O (centres unmarked) [TCMDC-123884] | 64.88 | – | –
CCCOc1c(CCNCCCCNCCc2ccc3ccccc3c2OCCC)ccc2ccccc12.CS(=O)(=O)O [TCMDC-137950] | 2.69 | – | –
CN1CCCC1CCNc1ncc2c(-c3ccc(NC(=O)Nc4cc(C(F)(F)F)ccc4F)c(F)c3)nn(C)c2n1.O=C(O)C(F)(F)F (centres unmarked) [TCMDC-141610] | – | 3.14 | –
CCc1cc2c(Sc3nnc(N)s3)ncnc2s1 [TCMDC-123993] | 44.35 | – | –
CN(C)CCCNCc1cn(S(=O)(=O)c2ccccc2Cl)c2ccccc12.Cl [TCMDC-136302] | 6.39 | – | –
Fc1cc(Cl)ccc1Nc1ccnc2cc(-c3ccc(CN4CCOCC4)o3)ccc12 [TCMDC-138393] | 8.82 | – | –
Cc1ccnc(NC(c2ccc(Cl)c([N+](=O)[O-])c2)c2ccc3cccnc3c2O)c1 (centres unmarked) [TCMDC-123691] | 15.84 | – | –
CCn1c(-c2nonc2N)nc2c(-c3cccc(NC(=O)NC45CC6CC(CC(C6)C4)C5)c3)ncc(OCCCN)c21.O=C(O)C(F)(F)F [TCMDC-136246] | 4.47 | – | –
CNCCNCc1ccc(-c2ccc(-c3nc4cc(C(F)(F)F)ccc4[nH]3)s2)cc1.O=C(O)C(F)(F)F [TCMDC-132838] | 4.75 | – | –
CC(C)c1ccc(CN2CCC(CNC(=O)c3cc(-c4cccc(C(F)(F)F)c4)cs3)C2)cc1.O=C(O)C(F)(F)F (centres unmarked) [TCMDC-134435] | 3.93 | – | –
O=C(O)C(F)(F)F.O=S(=O)(c1ccccc1)n1ccc2cc(Nc3ncnc4cc(C#C[C@H]5CCCN5)sc34)ccc21 [TCMDC-138913] | – | 4.71 | –
CN(C)CCN1CCN(CCCN2c3ccccc3Sc3ccc(C(F)(F)F)cc32)CC1.Cl [TCMDC-142257] | – | 14.77 | –
CCn1c2ccccc2c2cc(C=NN=c3cc(C)[nH]c4ccccc34)ccc21 [TCMDC-142186] | – | 1.40 | –
O=C(NCC1CCN(Cc2cccc(C(F)(F)F)c2)C1)c1cc(-c2cccc(Cl)c2)cs1.O=C(O)C(F)(F)F (centres unmarked) [TCMDC-134485] | 18.01 | – | –
CN(C)Cc1cccc2nc(-c3csc(Cc4cc(Cl)ccc4OCc4ccccc4)n3)[nH]c12 [TCMDC-132174] | 6.21 | – | –
CC(Nc1cc(-c2ccccn2)nc(-c2ccccn2)n1)c1ccccc1 (centres unmarked) [TCMDC-125420] | 29.80 | – | –

SMILES | Assay tox ratio Pf FGAA [2] | Assay tox ratio Pf FGAA [3] | further results
O=C(c1ccc([N+](=O)[O-])o1)N1CCN(c2nc3c(F)cc(F)cc3s2)CC1 [TCMDC-125149] | 76.53 | – | –
CC(C)C1=CC(=NOS(=O)(=O)c2ccccc2)C=C(C(C)C)C1=O [TCMDC-124172] | 24.74 | – | –
CCN(CC)CCN(Cc1ccc(-c2ccc(C(F)(F)F)cc2)cc1)C(=O)Cn1cc(Cc2cnn(C)c2)c(=O)nc1/C=C/c1ccc(F)cc1.O=C(O)C(O)C(O)C(=O)O [TCMDC-140741] | – | 11.45 | –
Cc1ccnc(NC(c2cccc(Cl)c2Cl)c2ccc3cccnc3c2O)c1 (centres unmarked) [TCMDC-123997] | – | – | Assay tox ratio Pf FGAA [1]: 12.74
Oc1c(C(Nc2ccccn2)c2ccc(Cl)cc2Cl)ccc2cccnc12 (centres unmarked) [TCMDC-125559] | 11.16 | – | –
COc1cc2nc(-c3ccc(Br)cc3)cc(N)c2cc1OC [TCMDC-138933] | – | 6.53 | –
O=C(Nc1nc(-c2ccccn2)cs1)c1ccc(S(=O)(=O)N2CCc3ccccc32)cc1 [TCMDC-125432] | – | – | Assay tox ratio Pf FGAA [1]: 15.68
c1ccc(-c2nc(NC3CCCCC3)cc(C3CC3)n2)nc1 [TCMDC-125825] | 307.80 | – | –
c1ccc(CNc2cc(-c3ccccn3)nc(-c3ccccn3)n2)cc1 [TCMDC-125421] | 40.15 | – | –
CN1CCC(N2CCN(Cc3cccc(-c4ccc(-c5nc6cc(C(F)(F)F)ccc6[nH]5)cc4)c3)CC2)CC1.O=C(O)C(F)(F)F [TCMDC-133842] | 2.23 | – | –
CCOc1ccc2c(=NN=Cc3cc(OC)c(OC)cc3OC)cc(C)[nH]c2c1 [TCMDC-142207] | – | 9.97 | –
Oc1ccc2[nH]cc(C3CCN(CCCNCc4ccc(-c5ccccc5)cc4)CC3)c2c1 [TCMDC-139047] | – | 3.91 | –
Cc1cc2nc(N=C3NC4(c5ccccn5)NC(=Nc5nc6cc(C)c(C)cc6[nH]5)NC4(c4ccccn4)N3)[nH]c2cc1C.O=C(O)C(F)(F)F (centres unmarked) [TCMDC-139105] | – | 6.73 | –
CCCCOc1c(CNCCCCCCNCc2ccc3ccccc3c2OCCCC)ccc2ccccc12.CS(=O)(=O)O [TCMDC-137975] | 1.48 | – | –
CC(C)(C)c1ccc(CNC(=O)/C=C/c2ccc(CNC3CCNCC3)cc2)cc1 [TCMDC-140773] | – | 4.94 | –
Cc1ccc(C)c2sc(N3CCN(C(=O)c4ccc([N+](=O)[O-])o4)CC3)nc12 [TCMDC-124315] | 33.48 | – | –
NCc1ccc(CNCc2ccc(-c3ccc(-c4nc5cc(C(F)(F)F)ccc5[nH]4)s3)cc2)cc1.O=C(O)C(F)(F)F [TCMDC-132814] | 8.12 | – | –
Nc1nc(N)c2c(ccc3[nH]c(-c4ccccc4Cl)nc32)n1 [TCMDC-137840] | 0.52 | – | –
Cl.Fc1cc(Cl)ccc1Nc1ccnc2cc(-c3ccc(CN4CCNCC4)o3)ccc12 [TCMDC-138394] | 6.32 | – | –
CC(C)Cn1cc(C2CCN(CCN3CCC(CNC(=O)c4ccc(-c5ccc(C#N)cc5)cc4)CC3)CC2)c2ccccc21 [TCMDC-138849] | – | 4.67 | –
CC(C)(CN)c1cc(-c2ccc(Cl)c(O)c2)c(-c2ccncc2)o1.Cl [TCMDC-141334] | – | – | Assay tox ratio Pf FGAA [1]: 36.75
c1ccn2c(Sc3ncnc4sccc34)ncc2c1 [TCMDC-124602] | 413.79 | – | –
O=S(=O)(Nc1cccc(F)c1CNCc1ccccn1)c1ccc(Cl)c(Cl)c1 [TCMDC-132598] | 15.04 | – | –

SMILES | Assay tox ratio Pf FGAA [2] | Assay tox ratio Pf FGAA [3] | further results
N=C(N)Nc1nc(-c2ccc(NCc3ccc(CNc4cccc(-c5csc(NC(=N)N)n5)c4)cc3)cc2)cs1 [TCMDC-140699] | – | 5.34 | –
CN1CCN(Cc2ccc(-c3cc4c(Nc5ccc(OCc6cccc(F)c6)c(Cl)c5)ncnc4s3)[nH]2)CC1 [TCMDC-135458] | 4.56 | – | –
Clc1ccc(Nc2nc3ccc(Cl)cc3nc2Nc2ccc(Cl)cc2)cc1 [TCMDC-137772] | 4.11 | – | –
Cl.O=S(=O)(Nc1cc2c(cc1OCCCN1CCCCC1)CCNCC2)c1ccc(-c2ccc(Cl)cc2)cc1 [TCMDC-141753] | – | 2.18 | –
Cc1ccc(Cn2nc(Cl)c(N3CCNCC3)cc2=O)cc1NC(=O)Nc1ccc(-c2ccccc2)cc1.O=C(O)C(F)(F)F [TCMDC-141698] | – | 10.79 | –
Nc1cc2c(C3CCN(CC4CCN(C(=O)/C=C/c5ccc(Cl)c(Cl)c5)CC4)CC3)c[nH]c2cn1 [TCMDC-140133] | – | 3.16 | –
O=C(Nc1ccc([N+](=O)[O-])cc1)Nc1cc(OCC(F)(F)F)cc(OCC(F)(F)F)c1 [TCMDC-124533] | 5.40 | – | –
CCCCN(CCCC)CCCCNc1c2ccc(Cl)cc2nc2ccc(OC)cc12.Cl [TCMDC-137460] | 2.41 | – | –
Cc1c2ccncc2c(C)c2c1[nH]c1cc(Cc3ccccc3)c(O)cc12 [TCMDC-132053] | 1.13 | – | –
Cc1cc(F)ccc1-c1nc(NCCCNCCc2ccccc2)nc2c1ccc(=O)n2-c1c(F)cccc1F.O=C(O)C(F)(F)F [TCMDC-141804] | – | – | Assay tox ratio Pf FGAA [1]: 3.33
COc1ccc(N2CCN(CCCCNCc3ccc(NC(=O)c4cc(Cl)cc(Cl)c4)cc3)CC2)c(OC)c1 [TCMDC-138226] | 1.42 | – | –
Cc1ccc(Cn2nc(N3CCNCC3)ccc2=O)cc1NC(=O)Nc1ccc(-c2ccccc2)cc1.O=C(O)C(F)(F)F [TCMDC-132580] | 3.83 | – | –
FC(F)(F)c1ccc2[nH]c(-c3cccc(-c4cccc(CNCCN5CCNCC5)c4)c3)nc2c1.O=C(O)C(F)(F)F [TCMDC-132871] | 5.42 | – | –
Cn1c(Sc2ncnc3sccc23)nc2ccccc21 [TCMDC-124514] | – | – | Assay tox ratio Pf FGAA [1]: 80.21
COc1ccc(CNC2Cc3ccccc3C2)cc1-c1ccc(S(=O)(=O)NCCN2CCCC2)s1.O=C(O)C(F)(F)F [TCMDC-132258] | 3.82 | – | –
COc1cccc(CCNC(C)Cc2ccc(OCCCCOc3ccccc3)cc2)c1 (centres unmarked) [TCMDC-140020] | – | 0.97 | –
COC(=O)c1ccc(-c2ccc(C(=O)NCC3CCN(c4nc(N)c5cc(OC)c(OC)cc5n4)CC3)cc2)cc1 [TCMDC-138721] | – | 6.71 | –
O=C(NCCCCN1CCC(c2ccc3c(c2OCCN2CCCC2)CCCC3)CC1)c1ccc(-c2ccc(C(F)(F)F)cc2)cc1 [TCMDC-138768] | – | 2.72 | –
Nc1ccc2[nH]cc(C3CCN(CC4CCN(C(=O)/C=C/c5ccc(Cl)c(Cl)c5)CC4)CC3)c2n1 [TCMDC-140061] | – | 3.33 | –
O=C(NCC1CCN(Cc2cccc(C(F)(F)F)c2)C1)c1cc(-c2cccc(F)c2)cs1.O=C(O)C(F)(F)F (centres unmarked) [TCMDC-134484] | 8.35 | – | –
O=C(Nc1cccc(-c2cccc(-c3nc4cc(C(F)(F)F)ccc4[nH]3)c2)c1)Nc1ccc(F)c(F)c1F [TCMDC-133229] | 2.46 | – | –
CCc1ccccc1-c1csc(C(=O)NCC2CCN(Cc3ccc(C(C)(C)C)cc3)C2)c1.O=C(O)C(F)(F)F (centres unmarked) [TCMDC-134448] | 6.39 | – | –

— PMC6753678, “Fueling Open Innovation for Malaria Transmission-Blocking Drugs: Hundreds of Molecules Targeting Early Parasite Mosquito Stages” (Frontiers in Microbiology, 2019)
